Results of unrelated studies side by side (data: NIAID ChemDB).

Common to all: toxicity to cultured cells; cell line: CEM; read by: MTT; read-out: CC50

CCn: concentration that lowers growth or viability of the cells by n%.

SMILES	value
CC(NC(=O)c1ccc2c(c1)C(=O)N(CCCN1CCOCC1)C2=O)c1ccc(F)cc1F	>72.7 µM
Cc1c(Cl)ccc2cc(/C=C/c3csc(Cl)c3)c(Cl)nc12	28.9 µM
O=c1[nH]c(=O)n([C@@H]2C=C[C@H](CO)O2)cc1CCO	>100 µM
CC(C)C(N)C(=O)O[C@@H](C[C@@H](Cc1ccccc1)C(=O)N[C@H]1c2ccccc2C[C@H]1O)CN1CCN(Cc2cccnc2)C[C@H]1C(=O)NC(C)(C)C	>100 µM
COc1ccc(C(=O)/C=C/c2cc3ccc(Cl)c(C)c3nc2Cl)cc1	31.9 µM
COC(=O)Cc1cn([C@H]2C=C[C@@H](COP(=O)(N[C@@H](C)C(=O)OC)Oc3ccccc3)O2)c(=O)[nH]c1=O	>100 µM
COc1ccc2c(c1)C(=O)C(Cl)=C(C1=C(N)C(=O)c3ccccc3C1=O)C2=O	3.6 µM
CSS[C@@H]1[C@H](O)[C@@H](CO)O[C@H]1n1ccc(N)nc1=O	82 µM
CC(=O)ONc1ccc(S(=O)(=O)N(CC(C)C)C[C@@H](O)[C@H](Cc2ccccc2)NC(=O)Cc2c[nH]c3ccccc23)cc1	>100 µM
O=P(O)(O)OP(=O)(O)OP(=O)(O)OP(=O)(O)OP(=O)(O)OP(=O)(O)OP(=O)(O)OP(=O)(O)OP(=O)(O)OP(=O)(O)OP(=O)(O)OP(=O)(O)OP(=O)(O)OP(=O)(O)OP(=O)(O)O	>100 µg/mL
O=C(O)C(=O)/C(=C\c1ccccc1)C(=O)c1ccccc1	>119 µM
CC(=O)ONc1ccc(S(=O)(=O)N(CC(C)C)C[C@@H](O)[C@H](Cc2ccccc2)NC(=O)c2ccc(-c3ccc(Cl)cc3)o2)cc1	30 µM
COc1ccc2c(c1)C(=O)C(=O)C(C1=C(Cl)C(=O)c3ccccc3C1=O)=C2O	5.3 µM
COC(=O)[C@H](C)NP(=O)(OC[C@@H]1C=C[C@H](n2cc(CC(=O)NCCCCCCCCCCNC(=O)C(F)(F)F)c(=O)[nH]c2=O)O1)Oc1ccccc1	>10 µM
COC1=C(C2=C(Cl)C(=O)c3ccccc3C2=O)C(=O)c2ccc3c(c2C1=O)C=C[C@@](C)(CCC=C(C)C)O3	5.4 µM
COc1cc(/C=C/c2ccc3ccc(C(=O)O)c(O)c3n2)cc(O)c1O	6 µM
CC(C)CN(C[C@@H](O)[C@H](Cc1ccccc1)NC(=O)COc1ccc2ccccc2c1)S(=O)(=O)c1ccc(Br)cc1	65.8 µM
Cc1cc(/C=C/c2cc3ccc(Cl)c(C)c3nc2Cl)c(C)s1	70.09 µM
NC1=C(C2=C(N)C(=O)c3ccccc3C2=O)C(=O)c2ccccc2C1=O	7.9 µM
O=C(Cn1cnc2c(nnn2-c2ccccc2)c1=O)NCc1ccccc1F	15 µM
CC(C)CN(C[C@@H](O)[C@H](Cc1ccccc1)NC(=O)CCN1C(=O)c2ccccc2C1=O)S(=O)(=O)c1ccc(Br)cc1	>100 µM
CSS[C@@H]1[C@H](O)[C@@H](CO)O[C@H]1n1ccc(=O)[nH]c1=O	160 µM
CC(=O)ONc1ccc(S(=O)(=O)N(CC(C)C)C[C@@H](O)[C@H](Cc2ccccc2)NC(=O)CCN2C(=O)c3ccccc3C2=O)cc1	>100 µM
O=C1C(=O)c2ccccc2C(O)=C1C1=C(Cl)C(=O)c2ccccc2C1=O	5.3 µM
COC(=O)Cc1cn([C@@H]2C=C[C@H](COP(=O)(N[C@@H](C)C(=O)OC)Oc3ccccc3)O2)c(=O)[nH]c1=O	>100 µM
Cc1c(OC(=O)CCCCOc2ccc(C[C@H](NC(=O)OC(C)(C)C)C(=O)O)cc2)cccc1C(=O)N[C@@H](CSc1ccccc1)[C@H](O)CN1C[C@H]2CCCC[C@H]2C[C@H]1C(=O)NC(C)(C)C	>100 µM
COc1ccc2c(c1)C(O)=C(C1=C(Cl)C(=O)c3ccccc3C1=O)C(=O)C2=O	5.5 µM
Cc1csc(/C=C/c2cc3ccc(Cl)c(C)c3nc2Cl)c1	62.04 µM
Cc1c(O)cccc1C(=O)N[C@@H](CSc1ccccc1)[C@@H](CN1C[C@H]2CCCC[C@H]2C[C@H]1C(=O)NC(C)(C)C)OC(=O)NCCCCOc1ccc(C[C@H](N)C(=O)O)cc1	>100 µM
O=C(Cc1cn([C@H]2C=C[C@@H](CO)O2)c(=O)[nH]c1=O)NCCCCCCCCCCCCNC(=O)c1c2ccccc2nc2ccccc12	>10 µM
CC(C)(C)NC(=O)[C@@H]1CN(Cc2cccnc2)CCN1C[C@@H](O)C[C@@H](Cc1ccccc1)C(=O)N[C@H]1c2ccccc2C[C@H]1OC(=O)CCCCOc1ccc(C[C@H](NC(=O)OC(C)(C)C)C(=O)O)cc1	>100 µM
CC(=O)ONc1ccc(S(=O)(=O)N(CC(C)C)C[C@@H](O)[C@H](Cc2ccccc2)NC(=O)COc2ccc3ccccc3c2)cc1	>100 µM
CC(C)C(N)C(=O)O[C@H](CN1C[C@H]2CCCC[C@H]2C[C@H]1C(=O)NC(C)(C)C)[C@H](Cc1ccccc1)NC(=O)[C@H](CC(N)=O)NC(=O)c1ccc2ccccc2n1	>100 µM
Cc1c(Cl)ccc2cc(/C=C/C(=O)c3ccc(Cl)cc3)c(Cl)nc12	31.09 µM
CCCCCCCC/C=C\CCCCCCCC(=O)O[C@H](CN1C[C@H]2CCCC[C@H]2C[C@H]1C(=O)NC(C)(C)C)[C@H](Cc1ccccc1)NC(=O)[C@H](CC(N)=O)NC(=O)c1ccc2ccccc2n1	>100 µM
O=C(OCC(=O)N1N=C2/C(=C/c3ccc(F)cc3)CCCC2C1c1ccc(F)cc1)c1cnccn1	>65 µM

A second listing of 2 rows from above:

| SMILES | value |
|---|---|
| NC1=C(C2=C(N)C(=O)c3ccccc3C2=O)C(=O)c2ccccc2C1=O | 7.9 µM |
| CC(=O)ONc1ccc(S(=O)(=O)N(CC(C)C)C[C@@H](O)[C@H](Cc2ccccc2)NC(=O)COc2ccc3ccccc3c2)cc1 | >100 µM |

Neighbouring rows are from separate reports.